The text below walks through data of PMC9261887 (Scientific Reports, 2022).

Common to all, as to assay: SPR
Common to all, as to settings: both partners purified

The target of experiment [1] is SARS-CoV-2 spike protein receptor binding domain (RBD […]), Beta B.1.351 (SARS-CoV-2).
Experiment [2] addresses SARS-CoV-2 spike protein receptor binding domain (RBD […]), Alpha B.1.1.7 (SARS-CoV-2).
The target in experiment [3] is SARS-CoV-2 spike protein receptor binding domain (RBD […]), Delta B.1.617.2 (SARS-CoV-2).
Experiment [4] has as its target T1, SARS-CoV-2 spike protein receptor binding domain (RBD […]), Kappa B.1.617.1 (SARS-CoV-2).
For experiment [5], the target named is T1, SARS-CoV-2 spike protein receptor …. The source holds these as a separate data set.

“And” between values parts separate entries of the source, which are not always exact repeats. Identical values can stand only once.

B1: Human angiotensin-converting enzyme 2 ectodomain ([…]) with C-terminal E5 coil tag, p (receptor)
chain: not shown
notes: also called ACE2-E5; ACE2; not shown: E5 coil (GGGG[EVSALEK]5GGG), C-terminal, kept
In the case of B1, the kon in experiment [1] is 392000 M⁻¹ s⁻¹ and 1.14e+06 M⁻¹ s⁻¹; in experiment [2], 434000 M⁻¹ s⁻¹ and 1.11e+06 M⁻¹ s⁻¹; in experiment [3] it was 421000 M⁻¹ s⁻¹; in experiment [4] it was 189000 M⁻¹ s⁻¹. Besides, the dissociation rate constant (koff) in experiment [3] is 0.0447 s⁻¹; in experiment [4], 0.00528 s⁻¹. Further, in experiment [5], the Kd is 29.5 nM and 69 nM and 75.5 nM.

For orientation: kon means a measure of how fast the partners come together. The koff is a measure of how fast the partners let go of each other. The low end stands for a long-lived complex, the high end for a short-lived complex. Usually Kd stands for the constant that tells how readily two partners part at equilibrium.
